Compound potency records, mixed from different reports. Data source: NIAID ChemDB in PubChem.

All rows: target-level tests; agent: HIV-1; protein: Reverse transcriptase; measure: IC50

An empty or dashed field is not shown.

| SMILES | strain | changes | read by | result |
|---|---|---|---|---|
| O=C(O)[C@H]1O[C@@H](Oc2cc3oc(-c4ccc(O)cc4)cc(=O)c3c(O)c2O)[C@H](O)[C@@H](O)[C@@H]1O |  |  | ELISA | ~433 µM |
| O=C(CSc1nnc(Br)n1-c1ccc(C2CC2)c2ccccc12)Nc1ccc(C(=O)N[C@@H](Cc2ccc(O)cc2)C(=O)O)cc1Cl |  | RT-Y188L | nucleotide incorporation / radiometric | 0.05–0.1 µM |
| CCOCn1c(Cc2ccccc2)c(C(C)C)c(=O)[nH]c1=O |  | RT-W229F | radiometric | 0.13 µM |
| CCOC(=O)CCNC(=O)c1ccc(NC(=O)CSc2nnc(Br)n2-c2ccc(CC)c3ccccc23)c(Cl)c1 |  |  | nucleotide incorporation / radiometric | <0.05 µM |
| CCN1c2ncc(CCOc3ccc(-c4ccccc4)cc3)cc2C(=O)N(C)c2cccnc21 | IIIB | RT-K103N Y181C | nucleotide incorporation / radiometric | 0.05–0.1 µM |
| CC(C)C[C@H](NC(=O)c1ccc(NC(=O)CSc2nnc(Br)n2-c2ccc(C3CC3)c3ccccc23)c(Cl)c1)C(=O)O |  | RT-Y181C | nucleotide incorporation / radiometric | <0.05 µM |
| CC(=O)O[C@@H]([C@H](C)[C@H](O)[C@H](C)[C@@H](O)[C@@H](C)/C=C/C=C(/C)C(=O)NC1=CC(=O)c2c(c(O)c(C)c3oc(C)cc23)C1=O)[C@H](C)/C=C\C=O |  |  | ELISA | >300 µM |
| CCc1ccc(-n2c(Br)nnc2SCC(=O)Nc2ccc(C(=O)N[C@@H](CO)C(=O)OC)cc2Cl)c2ccccc12 |  | RT-Y188L | nucleotide incorporation / radiometric | <0.05 µM |
| CCOC(=O)c1cccn1S(=O)(=O)c1ccc2nc[nH]c2c1 |  |  | nucleotide incorporation | 3 µM |
| CC(C)=CCOc1cc(NC(=S)c2ccoc2C)ccc1Cl |  |  | nucleotide incorporation | 0.021 µM |
| CCN1c2ncc(CCOc3ccc(-c4cocn4)cc3C)cc2C(=O)N(C)c2cccnc21 | IIIB | RT-K103N Y181C | nucleotide incorporation / radiometric | <0.05 µM |
| COC(=O)/C(C)=C\C=C\[C@H](C)[C@H](OC(C)=O)[C@@H](C)[C@@H](OC(C)=O)[C@@H](C)[C@H](OC(C)=O)[C@H](C)[C@H](/C=C/O[C@@]1(C)Oc2c(C)c(O)c3c(c2C1=O)C(=O)C=C(N)C3=O)OC |  |  | ELISA | >300 µM |
| COc1ccc2cccc(-n3c(Br)nnc3SCC(=O)Nc3ccc(C(=O)O)cc3Cl)c2c1 |  | RT-Y188L | nucleotide incorporation / radiometric | >0.1 µM |
| CCN1c2ncc(CCOc3ccc(C(=O)Nc4ccc(CC(=O)O)cc4)cc3C)cc2C(=O)N(C)c2cccnc21 | IIIB |  | nucleotide incorporation / radiometric | <0.05 µM |
| COc1ccc2c(c1)N(C(=O)OC(C)C)[C@@H](CSC)C(=S)N2 |  |  | radiometric | 0.014 µM |
| CN(C)c1nc(N)nc2c1ncn2[C@H]1C[C@H](N=[N+]=[N-])[C@@H](CO)O1 |  | A62V V75I F77L F116Y Q151M | nucleotide incorporation | >50 µM |
| CC(C)C#CC1(C(C)C)NS(=O)(=O)Nc2ccc(Cl)cc21 |  |  |  | 24.1 µM |
| CCc1ccc(-n2c(SCC(=O)Nc3ccc(C(=O)O)cc3C)nnc2C(F)F)c2ccccc12 |  | RT-Y188L | nucleotide incorporation / radiometric | >0.1 µM |
| O=C(O)/C=C/c1ccc(O)c(O)c1 |  |  | nucleotide incorporation | >1000 µM |
| O=C(CSc1nnc(Br)n1-c1ccc(C2CCC2)c2ccccc12)Nc1ccc(C(=O)O)cc1Cl |  | RT-Y188L | nucleotide incorporation / radiometric | >0.1 µM |
| O=C(O)c1cn([C@@H]2O[C@H](CO)[C@@H](O)[C@H]2O)c2ccc(Br)cc2c1=O |  |  |  | >100 µM |
| CCOC(=O)c1cccn1S(=O)(=O)c1ccc2[nH]c(=O)[nH]c2c1 |  |  | nucleotide incorporation | 2 µM |
| Cc1sccc1C(=S)Nc1ccc(Cl)c(OCC(C)(C)C)c1 |  |  | radiometric | 14.52 µM |
| CC(=O)O[C@H]1[C@H](C)[C@@H]([C@H](C)[C@@H](O)[C@@H](C)/C=C/C=C(/C)C(=O)NC2=CC(=O)c3c(c(O)c(C)c4oc(C)cc34)C2=O)OC(CC=O)[C@H]1C |  |  | ELISA | >300 µM |
| O=C(O)c1cn([C@@H]2O[C@H](CO)[C@@H](O)[C@H]2O)c2ccc(Cl)cc2c1=O |  |  |  | >100 µM |
| N#Cc1cc(Cl)cc(Oc2c(Br)ccc(CC(=O)Nc3ccc(S(N)(=O)=O)cc3Cl)c2F)c1 |  |  | radiometric | 0.0081 µM |
| Cc1occc1C(=S)Nc1ccc(Cl)c(OCC(C)(C)C)c1 |  |  | nucleotide incorporation | 16.8 µM |
| CCN1c2ncc(CCOc3ccc(-c4ccc(C(=O)O)cn4)cc3C)cc2C(=O)N(C)c2cccnc21 | IIIB |  | nucleotide incorporation / radiometric | <0.05 µM |
| CCOC(=O)CNC(=O)c1ccc(NC(=O)CSc2nnc(Br)n2-c2ccc(C3CC3)c3ccccc23)c(Cl)c1 |  |  | nucleotide incorporation / radiometric | <0.05 µM |
| CCN1c2ncc(CCc3ccncc3)cc2C(=O)N(C)c2ccc(Cl)nc21 | IIIB | RT-Y181C | RT activity | 0.12 µM |
| Nc1nc2c(ncn2[C@H]2CC[C@@H](COP(=O)(O)OP(=O)(O)OP(=O)(O)O)O2)c(=O)[nH]1 |  | RT-W229Y | radiometric | 0.57 µM |

A second listing of 3 rows from above:

{"SMILES": "Cc1sccc1C(=S)Nc1ccc(Cl)c(OCC(C)(C)C)c1", "read by": "radiometric", "result": "14.52 µM"}
{"SMILES": "CCc1ccc(-n2c(SCC(=O)Nc3ccc(C(=O)O)cc3C)nnc2C(F)F)c2ccccc12", "changes": "RT-Y188L", "read by": "nucleotide incorporation / radiometric", "result": ">0.1 µM"}
{"SMILES": "COc1ccc2cccc(-n3c(Br)nnc3SCC(=O)Nc3ccc(C(=O)O)cc3Cl)c2c1", "changes": "RT-Y188L", "read by": "nucleotide incorporation / radiometric", "result": ">0.1 µM"}

Conditions beyond the fields shown may differ between rows. ICn: concentration for n% inhibition. Two numbers with a dash give a range or band.